Results from US12486489B2, “Culture medium for testing drug resistance of H.pylori as well as preparation method and use thereof” (priority 2022, dated 2025).
Where two headings read alike, the source gives them in different places.

Columns and labels:
H. pylori [1] = test: Verification of resistance breakpoint: growth of laboratory strains on Columbia solid culture medium with added antibiotics, 72 hours; type: cell-based, Helicobacter pylori; details: for experimental resistant strains that grow: levofloxacin 0.5, clarithromycin 0.5, metronidazole 4, amoxicillin 0.5 μg/mL; for growth of bacterial: antibiotic 0.0625 μg/mL
Experimental: The plates are cooled and inverted for approximately 10 mL/piece, marked properly for the subsequent use.
(2) Preparation of bacterial solution: H. pylori grown in logarithmic phase on a solid plate is taken to prepare a bacterial suspension by using BHI. The concentration OD600 is adjusted to 0.3 (1×10^8 CFU/mL), diluted 10 times for the subsequent use.
(3) Inoculation of bacterial solution: 10 μL of bacterial solution is taken and added to Columbia culture medium and the results are determined after cultivating for 72 hours.
(4) Result determination: the minimum drug concentration for no growth of bacteria on the plate is the minimum inhibitory concentration of the bacteria against the drug.

H. pylori [2] = test: Growth of H. pylori on Columbia culture medium with added antibiotics; type: cell-based, Helicobacter pylori; set-up: key: +: refers to a growth of H. pylori; −: refers to non-growth of H. pylori
Experimental: (§1) (3) Preparation of bacterial solution: H. pylori grown in logarithmic phase on a solid plate is taken to prepare a bacterial suspension by using BHI, and the concentration OD600 is adjusted to 0.3 (1×10^8 CFU/mL), diluted 10 times for the subsequent use.
(§2) (4) Inoculation of bacterial solution: 10 μL of bacterial solution is taken and added dropwise to the characteristic culture medium and the results are determined after cultivating for 36 hours.

H. pylori [3] = test: MIC of laboratory H. pylori strains by micro dilution method; type: cell-based; details: Helicobacter pylori
Experimental: (3) Preparation of bacterial solution: H. pylori grown in logarithmic phase on a solid plate is taken, BHI culture medium is used to prepare a bacterial suspension. The concentration of the bacterial solution is adjusted to 1×10^8 CFU/mL (OD600 is 0.3), diluted 10 times, 100 times, and 1000 times to implement a final concentration of […], for the subsequent use.
(4) Inoculation of bacterial solution: 10 μL of the above bacterial solution for the subsequent use is taken and added to wells the 1-10-th and the 12-th well (bacterial working concentration is 1×10^6 CFU/mL), the 11-th well serves as a non-bacterial control and only sterile water is added. The wells are cultivated for 72 hours to determine the results.

H. pylori [4] = test: Growth of H. pylori and colour change on characteristic culture medium with added antibiotics; type: cell-based, Helicobacter pylori; set-up: key: x: refers to non-growth of H. pylori and no change in the color of the culture medium after 72 hours of culture; *: refers to a color change of the culture medium after 36 hours of culture and a growth of H. pylori after 72 hours of culture
Experimental: as §1, §2

[5] = strain 159, levofloxacin 0.5, clarithromycin 0.5, metronidazole 4, amoxicillin 0.0625 μg/mL
[6] = strain 161, levofloxacin 0.5, clarithromycin 0.5, metronidazole 4, amoxicillin 0.0625 μg/mL
[7] = strain 162, levofloxacin 0.5, clarithromycin 0.5, metronidazole 4, amoxicillin 0.0625 μg/mL
[8] = strain 163, levofloxacin 0.5, clarithromycin 0.5, metronidazole 4, amoxicillin 0.0625 μg/mL
[9] = strain 286, levofloxacin 0.5, clarithromycin 0.5, metronidazole 4, amoxicillin 0.0625 μg/mL
[10] = strain 287, levofloxacin 0.5, clarithromycin 0.5, metronidazole 4, amoxicillin 0.0625 μg/mL
[11] = strain 289, levofloxacin 0.5, clarithromycin 0.5, metronidazole 4, amoxicillin 0.0625 μg/mL
[12] = strain 290, levofloxacin 0.5, clarithromycin 0.5, metronidazole 4, amoxicillin 0.0625 μg/mL
[13] = strain 26695, levofloxacin 0.5, clarithromycin 0.5, metronidazole 4, amoxicillin 0.0625 μg/mL
[14] = strain G27, levofloxacin 0.5, clarithromycin 0.5, metronidazole 4, amoxicillin 0.0625 μg/mL

CC[C@H]1OC(=O)[C@H](C)[C@@H](O[C@H]2C[C@@](C)(OC)[C@@H](O)[C@H](C)O2)[C@H](C)[C@@H](O[C@@H]2O[C@H](C)C[C@H](N(C)C)[C@H]2O)[C@](C)(OC)C[C@@H](C)C(=O)[C@H](C)[C@@H](O)[C@]1(C)O [Clarithromycin, clarithromycin]
90%: experimental resistant strains that grow (H. pylori [1])

CC1(C)S[C@@H]2[C@H](NC(=O)[C@H](N)c3ccc(O)cc3)C(=O)N2[C@H]1C(=O)O [Amoxicillin, amoxicillin]
0.0625 µg/mL: MIC (H. pylori [3]; strain 159, bacterial count 10^6 CFU/mL (second line of the strain), read-out: minimum inhibitory concentration (MIC)) | MIC (H. pylori [3]; strain 161, bacterial count 10^6 CFU/mL (second line of the strain), read-out: minimum inhibitory concentration (MIC)) | MIC (H. pylori [3]; strain 162, bacterial count 10^6 CFU/mL (second line of the strain), read-out: minimum inhibitory concentration (MIC)) | MIC (H. pylori [3]; strain 287, bacterial count 10^4 CFU/mL, read-out: minimum inhibitory concentration (MIC)) | MIC (H. pylori [3]; strain 26695, bacterial count 10^6 CFU/mL (first line of the strain), read-out: minimum inhibitory concentration (MIC))
−: growth of bacterial (H. pylori [1]; strain 162) | growth of bacterial (H. pylori [1]; strain 26695) | growth of bacterial (H. pylori [1]; strain G27) | growth of H. pylori (H. pylori [2]; [13]) | growth of H. pylori (H. pylori [2]; [14])
90%: experimental resistant strains that grow (H. pylori [1])
+: growth of bacterial (H. pylori [1]; strain 159) | growth of bacterial (H. pylori [1]; strain 161) | growth of bacterial (H. pylori [1]; strain 163) | growth of bacterial (H. pylori [1]; strain 286) | growth of bacterial (H. pylori [1]; strain 287) | growth of bacterial (H. pylori [1]; strain 289) | growth of bacterial (H. pylori [1]; strain 290) | growth of H. pylori (H. pylori [2]; [5]) | growth of H. pylori (H. pylori [2]; [6]) | growth of H. pylori (H. pylori [2]; [7]) | growth of H. pylori (H. pylori [2]; [8]) | growth of H. pylori (H. pylori [2]; [9]) | growth of H. pylori (H. pylori [2]; [10]) | growth of H. pylori (H. pylori [2]; [11]) | growth of H. pylori (H. pylori [2]; [12])
*: growth of H. pylori and color change of the culture medium (H. pylori [4]; [5]) | growth of H. pylori and color change of the culture medium (H. pylori [4]; [6]) | growth of H. pylori and color change of the culture medium (H. pylori [4]; [7]) | growth of H. pylori and color change of the culture medium (H. pylori [4]; [8]) | growth of H. pylori and color change of the culture medium (H. pylori [4]; [9]) | growth of H. pylori and color change of the culture medium (H. pylori [4]; [10]) | growth of H. pylori and color change of the culture medium (H. pylori [4]; [11]) | growth of H. pylori and color change of the culture medium (H. pylori [4]; [12])
x: growth of H. pylori and color change of the culture medium (H. pylori [4]; [13]) | growth of H. pylori and color change of the culture medium (H. pylori [4]; [14])
0.0625 to 2 µg/mL: MIC (H. pylori [3]; resistant strains 159, 161, 162, 163, 286, 287, 289, and 290, bacterial count 1×10^6 CFU/mL, read-out: MICs)
